Drawing on article PMC7949097, “Human Gb3/CD77 synthase produces P1 glycotope-capped N-glycans, which mediate Shiga toxin 1 but not Shiga toxin 2 cell entry” (2021), this text covers Kd for 1 substance.

The test concerns the target SapD glycoform 5, human saposin D carrying the P1 glycotope on its N-glycan (human) (UniProt P07602). Briefly: SPR. A general note: Surface plasmon resonance follows binding to a sensor surface in real time, without labels.

Turning to “Shiga toxin 1 B subunit (Stx1B) used in the SPR analysis (domain or fragment)”, the Kd was 33.1 µM.

What is called Kd is a measure of binding affinity in units of concentration. Read a low Kd as higher affinity.
